{"source": "paper PMC9415646", "about": "“Improving Aqueous Solubility and In Vitro Pharmacokinetic Properties of the 3-Nitroimidazo[1,2-a]pyridine Antileishmanial Pharmacophore” (Pharmaceuticals, 2022)", "system": "T. b. brucei BSF trypomastigotes", "assay": "Antitrypanosomal evaluation on T. b. brucei BSF trypomastigotes (Alamar Blue)", "assay_type": "cell-based, Trypanosoma brucei brucei", "settings": "SI = CC50 HepG2/EC50 T. brucei brucei", "method": "The effects of the tested compounds on the growth of T. b. brucei were assessed by Alamar Blue® assay described by Räz et al. T. b. brucei AnTat 1.9 (IMTA, Antwerpen, Belgium) was cultured in MEM with Earle’s salts, supplemented according to the protocol of Baltz et al. with the following modifications: 0.5 mM mercaptoethanol (Sigma Aldrich®, France), 1.5 mM L-cysteine (Sigma Aldrich®), 0.05 mM bathocuproïne sulfate (Sigma Aldrich®) and 20% heat-inactivated horse serum (Gibco®, France), at 37 °C and 5% CO2. They were incubated at an average density of 2000 parasites/100 µL in sterile 96-wells plates (Fisher®, France) with various concentrations of compounds dissolved in DMSO, in duplicate. Appropriate controls suramin, treated with sterile water, and fexinidazole, treated with DMSO on sterile water (reference drugs purchased from Sigma Aldrich, France and Fluorochem, UK) were added to each set of experiments. […] The plates were read in a ENSPIRE microplate reader (PerkinElmer, Waltham, MA, USA) using an excitation wavelength of 530 nm and an emission wavelength of 590 nm. […] EC50 were calculated by nonlinear regression analysis processed on dose-response curves, using GraphPad Prism software (USA). EC50 values were calculated from three separate experiments.", "data": [{"molecule": "Cc1ccc(C(=O)Nc2ccc(S(=O)(=O)O)c3cc(S(=O)(=O)O)cc(S(=O)(=O)O)c23)cc1NC(=O)c1cccc(NC(=O)Nc2cccc(C(=O)Nc3cc(C(=O)Nc4ccc(S(=O)(=O)O)c5cc(S(=O)(=O)O)cc(S(=O)(=O)O)c45)ccc3C)c2)c1", "note": "[Suramin, reference compound]", "values": [{"measurement": "SI T. b. brucei", "result": ">1250"}]}]}
